Values joined by “and” are separate entries in the source; they are usually repeats but may differ in a detail not shown here. Equal entries are not always repeated.
Tested on: Pantoea agglomerans (strain IG1)
Assay: Mutagen treatment of Pantoea agglomerans with MNNG, colony count
Details: MNNG 100 μg/mL, 37° C.

`CN(N=O)C(=N)N[N+](=O)[O-]` gave a Death rate (treatment duration 0.5 hr) of 94.16%, a Death rate (treatment duration 1 hr) of 95.62% and a Death rate (treatment duration 1.5 hr) of 96.84%. For the same compound, the Death rate (treatment duration 2 hr) was 97.99%, the Death rate (treatment duration 3 hr) was 99.9% and 99.89% and the Death rate (treatment duration 4 hr) was 99.9% and 99.93%.
